# Laboratory results reported in patent publication US12459987B2, “Monoclonal antibodies for prevention and treatment of herpes simplex viral infections” (priority 2019, dated 2025).
# Experiments:
# [1] = tested on: HSV-2 G infected cell lysates; assay: ELISA binding of recombinant antibodies to HSV-2 G infected cell lysates; set-up: species or system HSV-2 G strain
# [2] = tested on: HSV-2; assay: Passive transfer in vivo protection assay, lethal HSV-2 challenge; set-up: species or system mice
# [3] = target: human herpesvirus glycoprotein B (gB) (Human herpesvirus 2); assay: Immunoprecipitation-Mass Spectrometry (IP-MS) target identification; type: binding
# [4] = target: glycoprotein B of HSV-1 (gB-1) (Human herpesvirus 1); assay: Luminex multiplex assay, binding to gB-1
# [5] = target: gB-1 (Human herpesvirus 1); assay: Luminex competition: inhibition of binding of BMPC-23 human IgG to gB-1; set-up: species or system HSV-1
Molecule,"Relative avidity of binding to HSV-2 G lysates (rank order) ([1]; ELISA, order 32H6, 35H7, 22D10, 33B8)","Binding of recombinant antibodies to HSV-2 G lysates ([1]; ELISA, recombinant antibodies expressed in Expi293F cells)",Binding to HSV-lysate ([1]; Table 3 summary),"Mice protected from lethal challenge ([2]; IgG2c version, overall results from 2 independent experiments, passive transfer)",in vivo protection ([2]; Table 3 summary),"Protection against lethal HSV-2 challenge ([2]; as IgG2c, passive transfer, overall survival, epithelial and neurological assays)",Binding target identified by IP-MS [3],"Binding to gB-1 ([4]; Luminex multiplex assay, serially diluted antibodies)",Target antigens ([4]; Table 3 summary),Competition with BMPC-23 ([5]; Table 3 summary),"Inhibition of binding of BMPC-23 human IgG antibodies to gB-1 ([5]; competitor mouse IgG at 222 ng/ml, BMPC-23 human IgG 2 ng/ml, relative to control IgG H33Lγ1)"
"BMPC-23: mouse monoclonal antibody from bone marrow plasmacyte of ΔgD-2 vaccinated mice; IgH SEQ ID NO: 20, IgL SEQ ID NO: 22 (antibody, V domains shown, BMPC-23_IgH heavy chain; BMPC-23_IgL light chain) VH: QVQLQQSGPELVKPGASVKLSCKASGYSFTTYDINWVKERPGQGLEWIGWIYPREGSTNYNEKFRGKATLTADTSSSTAYMELHSLTSEDSAVYFCATYGSSRYYTMDYWGQGTSVTVSSA VL: DIVLTQSPTSLAVSLGQRATISCRASESVDNFGISFMNWFQQKPGQPPKLLIYAASNLGSGVPARFSGSGSGTDFSLNIHPMEDDDTAMYFCQQSKEVPLTFGAGTKLELKR",comparable to that of 19G7,reacted with HSV-2 G lysate,Yes,8/10,Yes,significant protection; also recorded: provides protection,human herpesvirus glycoprotein B (gB),substantial binding,gB,Strong,
"BMPC-23 mouse IgG: BMPC-23 as mouse IgG, competitor against BMPC-23 human IgG (antibody, V domains shown) VH: QVQLQQSGPELVKPGASVKLSCKASGYSFTTYDINWVKERPGQGLEWIGWIYPREGSTNYNEKFRGKATLTADTSSSTAYMELHSLTSEDSAVYFCATYGSSRYYTMDYWGQGTSVTVSSA VL: DIVLTQSPTSLAVSLGQRATISCRASESVDNFGISFMNWFQQKPGQPPKLLIYAASNLGSGVPARFSGSGSGTDFSLNIHPMEDDDTAMYFCQQSKEVPLTFGAGTKLELKR",,,,,,,,,,,> 99%

# “Also recorded” adds a separate entry of the source.
